Compound potency records, mixed from different reports. Data source: NIAID ChemDB in PubChem.

All rows: tests in culture; organism: Candida albicans

Neighbouring rows are from separate reports. MIC50, MIC90 and the like: level of inhibition, or share of isolates inhibited. An empty or dashed field is not shown. ECn: concentration that inhibits the pathogen or its effect by n%.

compound	strain or isolate	read-out	method	conditions	value
N=C(N)c1ccc2nc(-c3ccc(-c4nc5ccc(C(=N)N)cc5[nH]4)[nH]3)[nH]c2c1	Isolate 2370 fluconazole-resistant	MIC	-	-	0.39 µg/mL
Nc1[nH]c(=O)ncc1F	10 isolates	EC90	broth dilution	pH 4	>64 µg/mL
CCCCCCCCCCCCCCCCCC(=O)NC1CC(O)C(O)NC(=O)C2C(O)C(C)CN2C(=O)C(C(C)O)NC(=O)C(C(O)C(O)c2ccc(O)cc2)NC(=O)C2CC(O)CN2C(=O)C(C(C)O)NC1=O	MY1585	MIC	-	-	1 µg/mL
Clc1ccccc1COc1ccc(C(c2nccc3ccccc23)n2ccnc2)cc1.O=[N+]([O-])O	16 strains	Mean MIC	-	-	≥256 µg/mL
CCCCCOc1ccc(-c2ccc(-c3ccc(C(=O)N[C@H]4CCCNC(=O)C5C[C@H](N=[N+]=[N-])N5C(=O)C(C(C)O)NC(=O)C(CCc5ccc(O)cc5)NC(=O)C5C[C@@H](O)CN5C(=O)C(C(C)O)NC4=O)cc3)cc2)cc1	ATCC CCH442	MIC	-	-	0.39 µg/mL
CC[C@@H]([C@H](C)O)n1ncn(-c2ccc(N3CCN(c4ccc(OC[C@@H]5CO[C@@](Cn6cncn6)(c6ccc(F)cc6F)C5)cc4)CC3)cc2)c1=O	15 isolates	EC90	broth dilution	pH 4	0.03 µg/mL
CC(=C/C=C/C(=O)O)/C=C/C=C(\C)C(O)C(C)C(=O)O[C@H]1C[C@H](C)C=C2C=C[C@@]3(C)O[C@@H](O)CC(=O)[C@]3(C)[C@H]21	ATCC 38247	MIC	-	-	0.78 µg/mL
Fc1ccc(COc2ccc(C(c3cccc4ccccc34)n3ccnc3)cc2)cc1.O=[N+]([O-])O	17 strains	Mean MIC	-	-	≥256 µg/mL
CCCCCOc1ccc(-c2ccc(-c3ccc(C(=O)N[C@H]4CCCNC(=O)[C@@H]5C[C@H](N)CN5C(=O)[C@H](CCCN)NC(=O)C(CCc5ccc(O)cc5)NC(=O)[C@@H]5C[C@@H](O)CN5C(=O)[C@H]([C@@H](C)O)NC4=O)cc3)cc2)cc1	ATCC CCH442	MIC	-	-	0.39 µg/mL
C[C@H]1[C@H](O)[C@@H](C)/C=C/C=C/C=C/C=C/C=C/C=C/C=C/[C@H](O[C@@H]2O[C@H](C)[C@@H](O)[C@H](N)[C@@H]2O)C[C@@H]2O[C@](O)(C[C@@H](O)C[C@@H](O)CC[C@H](O)[C@@H](O)C[C@@H](O)CC(=O)O[C@H]1C)C[C@H](O)[C@H]2C(=O)O	50 isolates	MIC90	-	-	0.2 µg/mL
Fc1ccccc1COc1ccc(C(c2cccc3ccccc23)n2ccnc2)cc1.O=[N+]([O-])O	17 strains	MIC90	-	-	≥256 µg/mL
CN(C)CNc1ccc(-c2cc3cc(NCN(C)C)ccc3o2)cc1	-	MIC	-	-	>60 µg/mL
COC(=O)[C@H]1[C@@H]2C[C@@H](O[C@@H]3O[C@H](C)[C@@H](O)[C@H](N)[C@@H]3O)/C=C/C=C/C=C/C=C/C=C/C=C/C=C/[C@H](C)[C@@H](O)[C@H](C)[C@H](C)OC(=O)C[C@H](O)C[C@H](O)[C@@H](O)CC[C@H](O)C[C@H](O)C[C@](O)(C[C@@H]1O)O2	10 isolates	EC90	broth dilution	pH 4	16 µg/mL
CCC(C)n1ncn(-c2ccc(N3CCN(c4ccc(OC[C@H]5CO[C@](Cn6cncn6)(c6ccc(Cl)cc6Cl)O5)cc4)CC3)cc2)c1=O	50 isolates	MIC50	-	-	0.01 µg/mL
N=C(N)c1ccc(N=NNc2ccc(C(=N)N)cc2)cc1	-	MIC	-	-	10 µg/mL
Fc1cccc(C(c2nccc3ccccc23)n2ccnc2)c1.O=[N+]([O-])O	44 strains	Mean MIC	-	-	128.5 µg/mL
N=C(N)c1ccc(CCc2cc3cc(C(=N)N)ccc3o2)cc1	-	MIC	-	-	30 µg/mL
C[C@H]1[C@H](O)[C@@H](C)/C=C/C=C/C=C/C=C/C=C/C=C/C=C/[C@H](O[C@@H]2O[C@H](C)[C@@H](O)[C@H](N)[C@@H]2O)C[C@@H]2O[C@](O)(C[C@@H](O)C[C@@H](O)CC[C@H](O)[C@@H](O)C[C@@H](O)CC(=O)O[C@H]1C)C[C@H](O)[C@H]2C(=O)O	ATCC 90028	MIC	-	-	0.5 µg/mL
CCCC(O)C/C=C\C=C\C(=O)OC[C@H]1O[C@@H](O[C@@H]2[C@H](OC(=O)/C=C/C=C/CC(O)/C(C)=C/C=C/CCC(C)CC)[C@@H](O)[C@]3(OCc4cc(O)cc(O)c43)O[C@@H]2CO)[C@H](O)[C@@H](O)[C@H]1O	MY1028	MIC	-	-	2 µg/mL
CCCCCOc1ccc(-c2ccc(-c3ccc(C(=O)N[C@H]4CCCNC(=O)C5C[C@H](NC(=O)Nc6ccccc6)CN5C(=O)C(C(C)O)NC(=O)C(CCc5ccc(O)cc5)NC(=O)C5C[C@@H](O)CN5C(=O)C(C(C)O)NC4=O)cc3)cc2)cc1	ATCC CCH442	MIC	-	-	12.5 µg/mL
C[C@@H](c1ncncc1F)[C@](O)(Cn1cncn1)c1ccc(F)cc1F	10 isolates	EC90	broth dilution	pH 6	1 µg/mL
CCC(C)n1ncn(-c2ccc(N3CCN(c4ccc(OC[C@H]5CO[C@](Cn6cncn6)(c6ccc(Cl)cc6Cl)O5)cc4)CC3)cc2)c1=O	FR2	MIC	-	-	0.004 µg/mL
CCCCCOc1ccc(-c2ccc(-c3ccc(C(=O)N[C@H]4CCCNC(=O)C5C[C@H](NCC(N)CO)CN5C(=O)C(C(C)O)NC(=O)C(CCc5ccc(O)cc5)NC(=O)C5C[C@@H](O)CN5C(=O)C(C(C)O)NC4=O)cc3)cc2)cc1	ATCC CCH442	MIC	-	-	0.39 µg/mL
Clc1cccc(Cl)c1COc1ccc(C(c2cccc3ccccc23)n2ccnc2)cc1.O=[N+]([O-])O	17 strains	MIC90	-	-	≥256 µg/mL
N=C(N)c1cccc(-c2cc3ccc(C(=N)N)cc3s2)c1	-	MIC	-	-	>60 µg/mL
CCCCCOc1ccc(-c2ccc(-c3ccc(C(=O)N[C@H]4CCCNC(=O)C5C[C@H](N)CN5C(=O)C(CCCN(CCN)CCN)NC(=O)C(CCc5ccc(O)cc5)NC(=O)C5C[C@@H](O)CN5C(=O)C(C(C)O)NC4=O)cc3)cc2)cc1	ATCC 10231	MIC	-	-	0.78 µg/mL